Pooled drug test results. Numbers come from NIAID ChemDB, via PubChem.

Shared fields: tests on isolated targets; organism: HIV-1; protein: Protease; measure: inhibition

Blank or dashed fields: not listed here.

structure | strain or isolate | method | tested at | result
CC(C)(C)OC(=O)N[C@@H](Cc1ccccc1)[C@H](O)[C@H](O)[C@H](Cc1ccccc1)NC(=O)OC(C)(C)C | - | fluorescence | 0.01 µM | 44%
O=c1[nH]c2ccc(S(=O)(=O)NCc3ccccc3)cc2o1 | - | - | 150 µM | 25.52%
CC(C)[C@H](NS(=O)(=O)N(C)Cc1ccccn1)C(=O)N[C@@H](Cc1ccccc1)[C@H](O)[C@@H](O)[C@H](Cc1ccccc1)NC(=O)[C@@H](NS(=O)(=O)N(C)Cc1ccccn1)C(C)C | - | fluorescence | 0.05 µM | 56%
O=C(NCc1cccnc1)[C@H](OCc1ccccc1)[C@H](O)[C@@H](O)[C@@H](OCc1ccccc1)C(=O)NCc1cccnc1 | - | absorbance | 10 µM | 0%
CSCC[C@H](NC(=O)[C@H](C)NC(=O)[C@H](CCC(=O)O)NC(=O)[C@H](C)N)C(=O)N[C@@H](CO)C(=O)N[C@@H](CCC(N)=O)C(=O)O | BH10 | HPLC | 100 µM | <1%
Cc1c(O)cccc1C(=O)N[C@@H](Cc1ccccc1)[C@H](O)C(=O)N1CSC(C)(C)[C@H]1C(=O)NC12CC3CC(CC(C3)C1)C2 | - | HPLC | 0.05 µM | 7.1%
Cc1ccccc1-n1nnc(C(c2ccccc2)(c2ccccc2)n2ccnc2)c1C | - | substrate cleavage / fluorescence | 2 µg/mL | 25%
COc1cc(OC)cc(C(=O)Oc2ccc3c(c2)C(C)=CC(C)(C)N3)c1 | - | - | 150 µM | 40.78%
Cc1c(O)cccc1C(=O)N[C@@H](Cc1ccccc1)[C@H](O)C(=O)N1CSC(C)(C)[C@H]1C(=O)NC1CCc2ccccc21 | - | HPLC | 0.05 µM | 91.2%
COC(=O)[C@@H](NC(=O)[C@H](CC(C)C)NC(=O)[C@@H](NC(=O)CCCOc1ccc2ccc(OCCCC(=O)N[C@@H](CCC(=O)O)C(=O)N[C@@H](CC(C)C)C(N)=O)cc2n1)C(C)C)C(C)C | - | fluorescence | 5.7 µM | 20%
O=C(NCCO)[C@H](OCc1ccccc1)[C@H](O)[C@@H](O)[C@@H](OCc1ccccc1)C(=O)NCCO | - | absorbance | 10 µM | 0%
CC(C)[C@H](N)C(=O)N[C@@H](Cc1ccccc1)C(O)[C@H](Cc1ccccc1)NC(=O)[C@@H](NC(=O)OCc1ccccc1)C(C)C | - | fluorescence | 0.01 µM | 52%
Cc1ccc(NC(=O)[C@H](OCc2ccccc2)[C@H](O)[C@@H](O)[C@@H](OCc2ccccc2)C(=O)Nc2ccc(C)cc2O)c(O)c1 | - | absorbance | 10 µM | 0%
O=C(/C=C/c1ccc(O)cc1)OCC1OC(OC2(COC(=O)/C=C/c3ccc(O)cc3)OC(COC(=O)/C=C/c3ccc(O)cc3)C(O)C2OC(=O)/C=C/c2ccc(O)cc2)C(O)C(O)C1O | - | substrate cleavage / fluorescence | 100 µg/mL | 95.38%
CC(C)[C@H](CC(=O)N(C)Cc1ccccn1)C(=O)N[C@@H](Cc1ccccc1)[C@@H](O)[C@H](O)[C@H](Cc1ccccc1)NC(=O)[C@@H](CC(=O)N(C)Cc1ccccn1)C(C)C | - | fluorescence | 0.01 µM | 45%
COC(=O)c1ccc(CNC(=O)[C@H]2N(C(=O)[C@@H](O)[C@H](Cc3ccccc3)NC(=O)COc3c(C)cccc3C)CSC2(C)C)cc1 | - | HPLC | 0.05 µM | 28.6%
Cc1ccccc1CNC(=O)[C@H]1N(C(=O)[C@@H](O)[C@H](Cc2ccccc2)NC(=O)c2cccc(N)c2Cl)CSC1(C)C | - | HPLC | 0.05 µM | 91%
CCOc1ccccc1CNC(=O)[C@H]1N(C(=O)[C@@H](O)[C@H](Cc2ccccc2)NC(=O)COc2c(C)cccc2C)CSC1(C)C | - | HPLC | 0.05 µM | 41.7%
CC(C)[C@H](NC(=O)OCc1ccccc1)C(=O)N[C@@H](Cc1ccccc1)[C@H](O)[C@H](Cc1ccccc1)NC(=O)[C@@H](NC(=O)OCC1CCCN(C)C1)C(C)C | - | fluorescence | 0.05 µM | 79%
CC1=CC(C)(C)Nc2ccc(OS(=O)(=O)c3ccc(C)cc3)cc21 | - | - | 150 µM | 32.29%
COc1ccc([C@@H]2CC(=O)c3c(O)cc(O)cc3O2)cc1O | - | FRET | 100 µg/mL | 7.2%
Cc1cccc(C)c1OCC(=O)N[C@@H](Cc1ccccc1)[C@H](O)C(=O)N1CSC(C)(C)[C@H]1C(=O)NCc1ccc2c(c1)OCO2 | - | HPLC | 0.05 µM | 27.6%
O=c1c(-c2ccc(O)cc2)coc2cc(OC3OC(CO)C(O)C(O)C3O)cc(O)c12 | - | substrate cleavage / fluorescence | 1000 µg/mL | 75%
Cc1c(O)cccc1C(=O)N[C@@H](Cc1ccccc1)[C@H](O)C(=O)N1CSC(C)(C)[C@H]1C(=O)NN(C)c1ccccc1 | - | HPLC | 0.05 µM | 12.9%
C=C(C)C1CC[C@]2(C)C(CC=C3C4[C@H](C)[C@@H](C)CC[C@]4(C)CC[C@]32C)[C@@]1(C)CCC(=O)O | - | substrate cleavage / fluorescence | 1000 µg/mL | 74.5%
COC(=O)[C@H](Cc1ccccc1)NC(=O)[C@H](OCc1ccccc1)[C@H](O)[C@@H](O)[C@@H](OCc1ccccc1)C(=O)N[C@@H](Cc1ccccc1)C(=O)OC | - | absorbance | 10 µM | 0%
CC(C)[C@H](NC(=O)OCc1cccnc1)C(=O)N[C@@H](Cc1ccccc1)[C@@H](O)[C@@H](O)[C@H](Cc1ccccc1)NC(=O)OC(C)(C)C | - | fluorescence | 0.001 µM | 40%
Cc1cccc(C)c1OCC(=O)N[C@@H](Cc1ccccc1)[C@H](O)C(=O)N1CSC(C)(C)[C@H]1C(=O)NC1CCc2ccccc21 | - | HPLC | 0.05 µM | 64.5%
Cc1c(O)cccc1NC(=O)[C@H](OCc1ccccc1)[C@H](O)[C@@H](O)[C@@H](OCc1ccccc1)C(=O)Nc1cccc(O)c1C | - | absorbance | 10 µM | 0%
COC(=O)CCCC[C@H]1[C@@H]2[C@H](CS1(=O)=O)N(Cc1cccc(Br)c1)C(=O)N2Cc1cccc(Br)c1 | - | - | 80 µM | 90%
C[C@H]1[C@H](C)CC[C@]2(C(=O)O)CC[C@]3(C)C(=CC[C@@H]4[C@@]5(C)CC[C@H](O)C(C)(C)[C@@H]5CC[C@]43C)[C@H]12 | - | substrate cleavage / fluorescence | 1000 µg/mL | 83.7%
Cc1cc(=O)[nH]c2ccc(S(=O)(=O)NCc3ccccc3)cc12 | - | - | 150 µM | 32.26%
CC(C)[C@H](NC(=O)NCc1ccccc1)C(=O)N[C@@H](Cc1ccccc1)C(O)[C@H](Cc1ccccc1)NC(=O)[C@@H](NC(=O)NCc1ccccc1)C(C)C | - | fluorescence | 0.005 µM | 78%
O=c1c(O)c(-c2ccc(O)cc2)oc2cc(O)cc(O)c12 | - | FRET | 100 µg/mL | 86.4%
Cc1nc2nc(NCc3cccc(Br)c3)[nH]n2c(=O)c1Cl | - | - | 150 µM | 28.8%
CC(C)[C@H](NC(=O)OCc1ccccc1)C(=O)N[C@@H](Cc1ccccc1)C(=O)C(F)(F)CCc1ccccc1 | - | fluorescence | 0.005 µM | 51%
Cc1cc(O)ccc1NC(=O)[C@H](OCc1ccccc1)[C@H](O)[C@@H](O)[C@@H](OCc1ccccc1)C(=O)Nc1ccc(O)cc1C | - | absorbance | 10 µM | 0%
Cc1ccc(F)cc1CNC(=O)[C@H]1N(C(=O)[C@@H](O)[C@H](Cc2ccccc2)NC(=O)c2cccc(O)c2C)CSC1(C)C | - | HPLC | 0.05 µM | 98%
CC(=O)OC1C(COC(=O)/C=C/c2ccc(O)cc2)OC(OC2(COC(=O)/C=C/c3ccc(O)cc3)OC(COC(=O)/C=C/c3ccc(O)cc3)C(OC(C)=O)C2OC(=O)/C=C/c2ccc(O)cc2)C(O)C1O | - | substrate cleavage / fluorescence | 100 µg/mL | 50.45%
CC(=O)N[C@H](C(=O)N[C@H](C(=O)NC(Cc1ccccc1)C(O)C(O)C(Cc1ccccc1)NCc1ccccc1)C(C)C)C(C)C | - | fluorescence | 270 µM | 100%
CC[C@H](C)/C=C(C)/C=C/C(=O)Cc1cc(O)c(C)c(O)c1C=O | - | - | 100 µg/mL | 0%

Again, the opening 5 rows:

| structure | strain or isolate | method | tested at | result |
|---|---|---|---|---|
| CC(C)(C)OC(=O)N[C@@H](Cc1ccccc1)[C@H](O)[C@H](O)[C@H](Cc1ccccc1)NC(=O)OC(C)(C)C | - | fluorescence | 0.01 µM | 44% |
| O=c1[nH]c2ccc(S(=O)(=O)NCc3ccccc3)cc2o1 | - | - | 150 µM | 25.52% |
| CC(C)[C@H](NS(=O)(=O)N(C)Cc1ccccn1)C(=O)N[C@@H](Cc1ccccc1)[C@H](O)[C@@H](O)[C@H](Cc1ccccc1)NC(=O)[C@@H](NS(=O)(=O)N(C)Cc1ccccn1)C(C)C | - | fluorescence | 0.05 µM | 56% |
| O=C(NCc1cccnc1)[C@H](OCc1ccccc1)[C@H](O)[C@@H](O)[C@@H](OCc1ccccc1)C(=O)NCc1cccnc1 | - | absorbance | 10 µM | 0% |
| CSCC[C@H](NC(=O)[C@H](C)NC(=O)[C@H](CCC(=O)O)NC(=O)[C@H](C)N)C(=O)N[C@@H](CO)C(=O)N[C@@H](CCC(N)=O)C(=O)O | BH10 | HPLC | 100 µM | <1% |

Conditions beyond the fields shown may differ between rows. Inhibition is in % at the dose shown (toxicity tests: loss of growth or viability).